Data source: PubChem BioAssay AID1224833 (University of Georgia, 2016)
The whole screen tested about 12,000 reagents; below is an unselected part. About 5,600 of all reagents (46%) were called active. 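Active calls cover z-scores past 1 in both directions, so they include lowered as well as raised rotavirus replication.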 No sequences are given here.

Assay: 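Host factors restraining rotavirus as candidate antiviral genes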 (primary screen)
Cells: monkey MA104 kidney cells
Reagent: siRNA pool against human genes, 50 nM
Time to read-out: 48 h knock-down before infection; read 24 h after infection
Treatment: infection with rotavirus strain RV3 two days after transfection; infectious dose for this stage not given
Detection: 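z-score of rotavirus antigen signal per well, from a fluorescent immunoassay, relative to non-targeting control wells on the same plate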
Direction: z-score vs non-targeting control: higher = more rotavirus replication than with non-targeting control
Active means: In these data the active calls have z-score vs non-targeting control at about -1 or lower, or at about 1 or higher
Calls: active = z-score beyond 1 either way; inactive = z-score within 1 of zero

gene symbol	PubChem SID	z-score vs non-targeting control	activity call
TULP3 (GeneID 7289)	SID329575739	-0.912	inactive
RTN4IP1 (GeneID 84816)	SID329581730	-2.14	active
NPBWR2 (GeneID 2832)	SID329573830	-0.599	inactive
CD1E (GeneID 913)	SID329573049	-0.477	inactive
KLHL27 (GeneID 3652)	SID329574176	0.444	inactive
GNMT (GeneID 27232)	SID329578534	-0.934	inactive
SEPTIN2 (GeneID 4735)	SID329574588	0.052	inactive
AMTN (GeneID 401138)	SID329584490	1.02	active
GPAA1 (GeneID 8733)	SID329576262	-0.924	inactive
MAP1LC3C (GeneID 440738)	SID329584584	0.958	inactive
CYB5R3 (GeneID 1727)	SID329573403	-1.3	active
LECT2 (GeneID 3950)	SID329574289	0.749	inactive
BCAS4 (GeneID 55653)	SID329579790	-2.55	active
STX17 (GeneID 55014)	SID329579522	-0.329	inactive
SPATC1L (GeneID 84221)	SID329581547	-0.326	inactive
CT83 (GeneID 203413)	SID329583466	1.12	active
TUBG2 (GeneID 27175)	SID329578521	1.38	active
TDG (GeneID 6996)	SID329575602	-1.24	active
C1QTNF6 (GeneID 114904)	SID329582247	-2.52	active
ZXDC (GeneID 79364)	SID329580877	-1.41	active
SIDT2 (GeneID 51092)	SID329578899	0.502	inactive
PPP1R14A (GeneID 94274)	SID329582152	-1.58	active
SND1 (GeneID 27044)	SID329578475	-1.01	active
CD1C (GeneID 911)	SID329573047	-0.845	inactive
CREB3L1 (GeneID 90993)	SID329581982	-0.689	inactive
CEP112 (GeneID 201134)	SID329583421	-1.33	active
TAF1B (GeneID 9014)	SID329576377	1.55	active
NRM (GeneID 11270)	SID329577625	-0.522	inactive
FGF5 (GeneID 2250)	SID329573636	-0.515	inactive
RBP3 (GeneID 5949)	SID329575097	2.88	active
IL4R (GeneID 3566)	SID329574136	-1.6	active
RMP24 (GeneID 83608)	SID329581421	-0.214	inactive
ZNF215 (GeneID 7762)	SID329575927	-0.0819	inactive
DMAC1 (GeneID 90871)	SID329581978	-1.25	active
CASKIN1 (GeneID 57524)	SID329580270	1.81	active
NDP (GeneID 4693)	SID329574561	-0.902	inactive
AIFM2 (GeneID 84883)	SID329581752	-1.93	active
PRELID2 (GeneID 153768)	SID329583095	2.05	active
SDK1 (GeneID 221935)	SID329583610	-1.58	active
GIGYF1 (GeneID 64599)	SID329580650	0.52	inactive
NENF (GeneID 29937)	SID329578729	-0.276	inactive
STT3B (GeneID 201595)	SID329583435	-1.09	active
TMEM196 (GeneID 256130)	SID329583736	-0.908	inactive
KPNA6 (GeneID 23633)	SID329578099	-1	active
SNRNP35 (GeneID 11066)	SID329577514	-1.95	active
KIF3A (GeneID 11127)	SID329577548	-0.532	inactive
TGM4 (GeneID 7047)	SID329575629	-1.1	active
RPS5 (GeneID 6193)	SID329575189	-0.21	inactive
CYP27A1 (GeneID 1593)	SID329573354	-0.897	inactive
ITIH2 (GeneID 3698)	SID329574199	-0.127	inactive
TXNRD1 (GeneID 7296)	SID329575744	-1.99	active
ADAMTS19 (GeneID 171019)	SID329583333	-1.19	active
SPATA2 (GeneID 9825)	SID329576818	-0.262	inactive
EDN2 (GeneID 1907)	SID329573482	0.358	inactive
NPY (GeneID 4852)	SID329574650	0.855	inactive
SOFU1 (GeneID 135927)	SID329582730	-1.94	active
CLEC14A (GeneID 161198)	SID329583194	0.54	inactive
SLC27A5 (GeneID 10998)	SID329577474	-1.35	active
CABP2 (GeneID 51475)	SID329579082	-0.246	inactive
NIPAL2 (GeneID 79815)	SID329581023	1.44	active
OR2AG2 (GeneID 338755)	SID329584033	1.17	active
TNFAIP8 (GeneID 25816)	SID329578176	0.887	inactive
DPM1 (GeneID 8813)	SID329576300	-2.43	active
DHPS (GeneID 1725)	SID329573402	-3.12	active
TMEM54 (GeneID 113452)	SID329582189	-0.342	inactive
POLD4 (GeneID 57804)	SID329580384	-1.57	active
SLC25A32 (GeneID 81034)	SID329581277	-1.34	active
LY6H (GeneID 4062)	SID329574345	0.844	inactive
ST6GALNAC4 (GeneID 27090)	SID329578488	-1.17	active
DYNLT1 (GeneID 6993)	SID329575601	-1.43	active
MRGPRX2 (GeneID 117194)	SID329582345	1.69	active
ZFP69 (GeneID 339559)	SID329584056	0.757	inactive
EPS15 (GeneID 2060)	SID329573555	-1.41	active
GOLGA6L9 (GeneID 440295)	SID329584573	-1.2	active
CDHR1 (GeneID 92211)	SID329582055	-0.72	inactive
RAB17 (GeneID 64284)	SID329580608	0.603	inactive
APOBEC3B (GeneID 9582)	SID329576671	-1.46	active
ANKRD9 (GeneID 122416)	SID329582439	0.578	inactive
DND1 (GeneID 373863)	SID329584218	0.383	inactive
NDUFV2 (GeneID 4729)	SID329574586	0.523	inactive
GH2 (GeneID 2689)	SID329573760	0.617	inactive
PPP1R16A (GeneID 84988)	SID329581811	-0.993	inactive
CNTNAP5 (GeneID 129684)	SID329582640	0.0363	inactive
SYNDIG1 (GeneID 79953)	SID329581092	-0.99	inactive
ZDHHC6 (GeneID 64429)	SID329580639	0.175	inactive
OR4X2 (GeneID 119764)	SID329582393	1.44	active
ORMDL3 (GeneID 94103)	SID329582139	0.209	inactive
EOLA1 (GeneID 91966)	SID329582040	-1.27	active
ZNF253 (GeneID 56242)	SID329580011	-0.982	inactive
PRSS45P (GeneID 377047)	SID329584268	-0.935	inactive
ZNF417 (GeneID 147687)	SID329582941	1.16	active
POFUT3 (GeneID 84750)	SID329581719	-0.169	inactive
DGLUCY (GeneID 80017)	SID329581122	0.284	inactive
APBB3 (GeneID 10307)	SID329577089	-2.8	active
C8orf34 (GeneID 116328)	SID329582307	-1.58	active
BRWD1 (GeneID 54014)	SID329579241	-1.35	active
CELF2 (GeneID 10659)	SID329577305	-0.965	inactive
TCERG1L (GeneID 256536)	SID329583747	0.704	inactive
PNMT (GeneID 5409)	SID329574888	-1.16	active
SNX11 (GeneID 29916)	SID329578717	0.565	inactive
SULT1C3 (GeneID 442038)	SID329584610	-1.14	active
EEF2 (GeneID 1938)	SID329573492	-2.04	active
AWAT2 (GeneID 158835)	SID329583165	-1.62	active
GET3 (GeneID 439)	SID329572839	0.654	inactive
NUDT16L1 (GeneID 84309)	SID329581593	1.87	active
TIMP1 (GeneID 7076)	SID329575644	-1.18	active
NKX2-1 (GeneID 7080)	SID329575648	0.637	inactive
KYAT3 (GeneID 56267)	SID329580024	-1.05	active
NTNG1 (GeneID 22854)	SID329577681	-2.7	active
PABIR2 (GeneID 159090)	SID329583171	-1.67	active
